A mixed list of measured activities; the numbers were collected in NIAID ChemDB.

Shared fields: whole-cell or culture tests; species: Enterococcus faecalis; read-out: MIC

Blank or dashed fields: not listed here. Neighbouring rows are from separate reports.

smiles,strain or isolate,value
O=C(CCC(=O)Nc1cc(C(F)(F)F)cc(C(F)(F)F)c1)Nc1cc(C(F)(F)F)cc(C(F)(F)F)c1,STD44,>300 µM
O=C(O)NC[C@H]1CC(c2ccc(N3CCN(C(=O)CO)CC3)c(F)c2)=NO1,UC9217,4 µg/mL
O=C(NC[C@H]1CN(c2ccc(C3CCS(=O)(=O)CC3)c(F)c2)C(=O)O1)C1CC1,UC9217,4 µg/mL
CC(=O)NC[C@H]1CN(c2ccc(-c3cnn(Cc4ccccc4)c3)c(F)c2)C(=O)O1,UC9217,4 µg/mL
O=C(O)NC[C@H]1CC(c2ccc(N3CCOCC3)c(F)c2)=NO1,UC9217,8 µg/mL
CC(=O)NC[C@H]1CN(c2ccc(-c3ccnn3C)c(F)c2)C(=O)O1,UC9217,≤0.5 µg/mL
N#Cc1cnn(-c2ccc(C3=NO[C@@H](CNC(=O)O)C3)cc2F)c1,UC9217,4 µg/mL
CC(=O)NC[C@H]1CN(c2ccc(-n3cnc(C=CC#N)c3)c(F)c2)C(=O)O1,,0.25 µg/mL
C=CCn1cc(-c2ccc(N3C[C@H](CNC(C)=O)OC3=O)cc2F)cn1,UC9217,2 µg/mL
CCC(=O)NC[C@H]1CN(c2ccc(C3CCS(=O)(=O)CC3)c(F)c2)C(=O)O1,UC9217,2 µg/mL
CCOC(=O)c1nc(-c2ccc(N3C[C@H](CNC(C)=O)OC3=O)cc2F)ns1,UC9217,>16 µg/mL
O=C(NNC(=O)NC1CCCCC1)Nc1cc(C(F)(F)F)cc(C(F)(F)F)c1,STD44,200 µM
COc1c(N2CC[C@@H]([C@H](C)NCC3=C(C(=O)O)N4C(=O)[C@@H](NC(=O)COc5ccccc5)C4SC3)C2)c(F)cc2c(=O)c(C(=O)O)cn(C3CC3)c12,,24 µg/mL
O=C(Nc1cc(C(F)(F)F)cc(C(F)(F)F)c1)NN1CCOCC1,STD44,>300 µM
CC(=O)NC[C@H]1CN(c2ccc(-c3cnn(C(C)=O)c3)c(F)c2)C(=O)O1,UC9217,2 µg/mL

The last 2 rows once more:

| smiles | strain or isolate | value |
|---|---|---|
| O=C(Nc1cc(C(F)(F)F)cc(C(F)(F)F)c1)NN1CCOCC1 | STD44 | >300 µM |
| CC(=O)NC[C@H]1CN(c2ccc(-c3cnn(C(C)=O)c3)c(F)c2)C(=O)O1 | UC9217 | 2 µg/mL |